Laboratory results published in US20250205260A1, “ADJUNCTIVE TREATMENT OF MYCOBACTERIAL DISEASES” (UNIVERSITY OF SOUTHERN CALIFORNIA, priority 2022, published 2025).

Tested on: M. tuberculosis trehalose catalytic shift (metabolome)
Assay: Metabolomics profiling / trehalose catalytic shift
Assay type: cell-based, Mycobacterium tuberculosis
Settings: for M. tuberculosis metabolome after treatment compared with ΔtreS: ~410 metabolites, clustering, PCA, molecular phylogeny

Structure (SMILES) | M. tuberculosis metabolome after treatment compared with ΔtreS | M. tuberculosis metabolome after INH or BDQ with co-treatment, compared with ΔtreS (co-treatment with 6-treAz)
N[C@H]1[C@H](O)[C@@H](O)[C@@H](O[C@H]2O[C@H](CO)[C@@H](O)[C@H](O)[C@H]2O)O[C@@H]1CO [4-TreNH2, (2R,3R,4S,5S,6R)-2-(((2R,3R,4S,5S,6S)-5-amino-3,4-dihydroxy-6-(hydroxymethyl)tetrahydro-2H-pyran-2-yl)oxy)-6-(hydroxymethyl)tetrahydro-2H-pyran-3,4,5-triol] | relatively similar to ΔtreS | –
NC[C@H]1O[C@H](O[C@H]2O[C@H](CO)[C@@H](O)[C@H](O)[C@H]2O)[C@H](O)[C@@H](O)[C@@H]1O [6-TreNH2, (2R,3S,4S,5R,6R)-2-(aminomethyl)-6-(((2R,3R,4S,5S,6R)-3,4,5-trihydroxy-6-(hydroxymethyl)tetrahydro-2H-pyran-2-yl)oxy)tetrahydro-2H-pyran-3,4,5-triol] | metabolically different from ΔtreS | –
[N-]=[N+]=NC[C@H]1O[C@H](O[C@H]2O[C@H](CO)[C@@H](O)[C@H](O)[C@H]2O)[C@H](O)[C@@H](O)[C@@H]1O [6-TreAz, (2R,3S,4S,5R,6R)-2-(azidomethyl)-6-(((2R,3R,4S,5S,6R)-3,4,5-trihydroxy-6-(hydroxymethyl)tetrahydro-2H-pyran-2-yl)oxy)tetrahydro-2H-pyran-3,4,5-triol] | – | became similar
N[C@H]1[C@@H](O[C@H]2O[C@H](CO)[C@@H](O)[C@H](O)[C@H]2O)O[C@H](CO)[C@@H](O)[C@@H]1O [2-TreNH2, (2R,3R,4S,5S,6R)-2-(((2R,3R,4R,5S,6R)-3-amino-4,5-dihydroxy-6-(hydroxymethyl)tetrahydro-2H-pyran-2-yl)oxy)-6-(hydroxymethyl)tetrahydro-2H-pyran-3,4,5-triol] | relatively similar to ΔtreS | –
